Results deposited as PubChem BioAssay AID624099 (ICCB-Longwood, 2012).

- Test: 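Host factors E2 relies on to silence an HPV18 LCR reporter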 (primary screen)
- System: human C33A cervical carcinoma cells (HPV-negative) stably expressing BPV1 E2 and an HPV18 LCR luciferase reporter
- Knock-down reagent: siRNA pool against human genes, 40 nM
- Duration: 72 h
- Detection: 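HPV18 LCR reporter light per well, converted to plate-wise z-scores that exclude control wells, and averaged over triplicate plates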
- Scale: mean z-score and z-score: higher = stronger reporter signal, weaker E2 silencing
- Rule for the call: 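Mean z ≥ 2 together with z ≥ 2 in two or more of the three replicates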
The whole screen tested about 21,000 reagents; below is a part drawn at random. 497 of them (2.4%) were called active. 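Higher z means weaker E2 silencing; only reporter increases were scored, and knock-downs that hurt cell survival may mask genuine repressor factors.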 Reagents against one gene are numbered here.

The first 7 entries, ahead of the listing:
Gene	reagent no.	mean z-score	z-score, replicate A	z-score, replicate B	z-score, replicate C	Outcome
KCTD1 (potassium channel tetramerization domain containing 1)	1	0.22	0.12	0.11	0.41	inactive
ZNF812P (zinc finger protein 812, pseudogene)	1	0.26	0.48	0.17	0.12	inactive
CACYBP (calcyclin binding protein)	1	-0.08	0.22	-0.02	-0.45	inactive
RBM39 (RNA binding motif protein 39)	1	-0.62	-0.67	-0.51	-0.66	inactive
LOC340893 (retired record)	1	1.63	1.26	1.37	2.25	inactive
OR4N2 (olfactory receptor family 4 subfamily N member 2)	1	-0.27	-0.56	0.06	-0.29	inactive
RAVER2 (ribonucleoprotein, PTB binding 2)	1	0.15	-0.1	0.55	-0.01	inactive

Main list, from the start:
Gene	reagent no.	mean z-score	z-score, replicate A	z-score, replicate B	z-score, replicate C	Outcome
KCTD1 (potassium channel tetramerization domain containing 1)	1	0.22	0.12	0.11	0.41	inactive
ZNF812P (zinc finger protein 812, pseudogene)	1	0.26	0.48	0.17	0.12	inactive
CACYBP (calcyclin binding protein)	1	-0.08	0.22	-0.02	-0.45	inactive
RBM39 (RNA binding motif protein 39)	1	-0.62	-0.67	-0.51	-0.66	inactive
LOC340893 (retired record)	1	1.63	1.26	1.37	2.25	inactive
OR4N2 (olfactory receptor family 4 subfamily N member 2)	1	-0.27	-0.56	0.06	-0.29	inactive
RAVER2 (ribonucleoprotein, PTB binding 2)	1	0.15	-0.1	0.55	-0.01	inactive
CHST11 (carbohydrate sulfotransferase 11)	1	-0.09	-0.5	0.17	0.05	inactive
MTCH1	1	0.08	-0.03	0.45	-0.19	inactive
CCZ1B (CCZ1B vacuolar protein trafficking and biogenesis associated)	1	-0.32	-0.3	-0.41	-0.25	inactive
LOC401268 (retired record)	1	-0.27	-0.03	-0.49	-0.3	inactive
THSD1 (thrombospondin type 1 domain containing 1)	1	-1.21	-1.25	-1.38	-1	inactive
SMARCE1 (SWI/SNF related BAF chromatin remodeling complex subunit E1)	1	0.36	0.55	0.27	0.25	inactive
NLRP1 (NLR family pyrin domain containing 1)	1	0.38	0.44	0.63	0.07	inactive
DDX3X (DEAD-box helicase 3 X-linked)	1	-0.44	-0.22	-0.52	-0.59	inactive
BCL7A (BAF chromatin remodeling complex subunit BCL7A)	1	-0.94	-1.12	-0.93	-0.79	inactive
ANKLE1 (ankyrin repeat and LEM domain containing 1)	1	-1.73	-1.74	-1.61	-1.83	inactive
IST1 (IST1 factor associated with ESCRT-III)	1	0.78	0.74	0.66	0.94	inactive
LOC401407 (retired record)	1	-0.29	-0.18	-0.22	-0.45	inactive
UGT2B4 (UDP glucuronosyltransferase family 2 member B4)	1	0.16	0.19	0.18	0.11	inactive
LOC728073 (retired record)	1	0.58	0.5	0.47	0.77	inactive
LOC401860 (retired record)	1	-0.19	0	0	-0.56	inactive
RAB6C (RAB6C, member RAS oncogene family)	1	-1.04	-1.17	-1.08	-0.88	inactive
EVX2 (even-skipped homeobox 2)	1	0.51	0.47	0.36	0.7	inactive
FOXI1 (forkhead box I1)	1	-0.17	-0.18	0.16	-0.48	inactive
CYP1B1 (cytochrome P450 family 1 subfamily B member 1)	1	-0.42	-0.35	-0.56	-0.33	inactive
VN1R10P (vomeronasal 1 receptor 10, pseudogene)	1	-0.62	-0.73	-0.26	-0.86	inactive
SGCZ (sarcoglycan zeta)	1	0.05	0.41	0.27	-0.53	inactive
HSFY1 (heat shock transcription factor Y-linked 1)	1	-0.31	-0.04	-0.51	-0.38	inactive
P2RX3 (purinergic receptor P2X 3)	1	1.87	1.62	2.27	1.71	inactive
ZNF622 (zinc finger protein 622)	1	0.44	0.25	0.55	0.51	inactive
NUP93 (nucleoporin 93)	1	-0.55	-0.27	-0.56	-0.81	inactive
SPANXB1 (SPANX family member B1)	1	0.85	1.02	0.89	0.64	inactive
SPANXB1 (SPANX family member B1)	2	0.98	0.86	1.09	0.98	inactive
HROB (homologous recombination factor with OB-fold)	1	0.65	0.65	0.44	0.86	inactive
ZNF155 (zinc finger protein 155)	1	0.23	0.26	0.26	0.18	inactive
FAM217A (family with sequence similarity 217 member A)	1	0.37	0.3	0.45	0.2	inactive
ZBTB49 (zinc finger and BTB domain containing 49)	1	-0.31	-0.75	-0.34	0.16	inactive
UBTD1 (ubiquitin domain containing 1)	1	-1.5	-1.23	-1.71	-1.56	inactive
FUT8 (fucosyltransferase 8)	1	-0.09	-0.41	-0.25	0.4	inactive
RPS18P12 (ribosomal protein S18 pseudogene 12)	1	0.26	0.33	0.03	0.41	inactive
XKRYP7 (XK related, Y-linked pseudogene 7)	1	-0.81	-0.71	-0.62	-1.11	inactive
FTL (ferritin light chain)	1	-1.46	-1.66	-1.36	-1.37	inactive
LRFN1	1	-0.07	-0.13	-0.08	0	inactive
PRELID3A (PRELI domain containing 3A)	1	-0.58	-0.56	-0.79	-0.4	inactive
ZNF778 (zinc finger protein 778)	1	3.42	3.52	3.12	3.62	active
LIPE (lipase E, hormone sensitive type)	1	-0.09	-0.06	-0.21	0.01	inactive
LINC00548 (long independently transcribed non-coding RNA 548)	1	0.06	0.42	-0.33	0.09	inactive
LOC400575 (retired record)	1	0.22	0.22	0.29	0.16	inactive
LYRM7 (LYR motif containing 7)	1	-1.69	-1.98	-1.5	-1.59	inactive
GHR (growth hormone receptor)	1	0.18	0.24	0.05	0.26	inactive
NEK11 (NIMA related kinase 11)	1	-0.53	-0.59	0.1	-1.09	inactive
YPEL4 (yippee like 4)	1	0.6	1.3	-0.1		inactive
C1D (C1D nuclear receptor corepressor)	1	1.49	1.5	1.44	1.53	inactive
SP4 (Sp4 transcription factor)	1	-0.46	-0.42	-0.65	-0.32	inactive
CYP4F8 (cytochrome P450 family 4 subfamily F member 8)	1	0.32	0.29	0.68	-0.01	inactive
SILC1 (sciatic injury induced lincRNA upregulator of SOX11)	1	0.08	-0.44	0.93	-0.24	inactive
ZYG11A (zyg-11 family member A, cell cycle regulator)	1	-0.01	0.2	-0.1	-0.14	inactive
RIMKLA (ribosomal modification protein rimK like family member A)	1	-1.03	-0.99	-0.77	-1.33	inactive
H2BC17 (H2B clustered histone 17)	1	0.17	0.02	0.2	0.3	inactive
HCLS1 (hematopoietic cell-specific Lyn substrate 1)	1	-0.29	-0.31	-0.35	-0.2	inactive
PLSCR1 (phospholipid scramblase 1)	1	0.5	0.47	0.56	0.47	inactive
ANKRD20A18P (ankyrin repeat domain 20 family member A18, pseudogene)	1	-0.38	-0.22	-0.21	-0.72	inactive
KLHL24 (kelch like family member 24)	1	-0.8	-1	-0.65	-0.75	inactive
ZNF275 (zinc finger protein 275)	1	-0.07	-0.08	-0.18	0.05	inactive
LINC02667 (long independently transcribed non-coding RNA 2667)	1	0.28	0.21	0.16	0.48	inactive
PIGS (phosphatidylinositol glycan anchor biosynthesis class S)	1	0.3	0.46	0.03	0.4	inactive
CCNK (cyclin K)	1	1.6	1.52	1.7	1.58	inactive
LOC390570 (retired record)	1	-0.44	-0.26	-0.67	-0.38	inactive
PAX3 (paired box 3)	1	0.52	0.52	0.63	0.42	inactive
SH2D1A (SH2 domain containing 1A)	1	-0.7	-0.49	-0.84	-0.76	inactive
CCT6B (chaperonin containing TCP1 subunit 6B)	1	2.04	2.16	2.16	1.81	active
OPTN (optineurin)	1	-1.62	-1.53	-1.43	-1.92	inactive
